In US20260014232A1 (Jiangsu Hengrui Pharmaceuticals Co., Ltd., priority 2021, published 2026):

How the values were obtained:
[1] = general procedure: Fmoc solid-phase peptide synthesis; Rink-amide MBHA; HCTU / 4-methylmorpholine; conditions: whole synthesis, scale 0.1 mmol
[2] = general procedure: Fmoc solid-phase peptide synthesis; Rink-amide MBHA resin (0.48 mMole/g); HCTU / 4-methylmorpholine; conditions: whole synthesis
[3] = analytical HPLC combined with UHPLC/MS

| Substance | isolated yield [1] | final HPLC purity ([2]; analytical HPLC and UPLC/MS) | final HPLC purity [2, 3] |
| --- | --- | --- | --- |
| H-YAibEGTFTSDYSIYK (OEG-OEG-γGlu-C20-OH) EKIAAQEFVNWLLAGGPSSGAPPPS-NH2 | 18% | 92.81% |  |
| H-YAibEGTFTSDYSIYLEK(OEG-OEG-γGlu-C20-OH)IAAQEFINWLIAGGPSSGAPPPS-NH2 |  |  | 94.56% |
| H-YAibEGTFTSDYSIYLEK(OEG-OEG-γGlu-C20-OH)IAAQEFINWLLAGGPSSGAPPPS-NH2 |  |  | 92.18% |
| H-YAibEGTFTSDYSIYLEK(OEG-OEG-γGlu-C20-OH)IAAQEFVNWLIAGGPSSGAPPPS-NH2 |  |  | 93.28% |
| H-YAibEGTFTSDYSIYLEK(OEG-OEG-γGlu-C20-OH)IAAQEFVNWLLAGGPSSGAPPPS-NH2 |  |  | 96.30% |
